B1: M1: Taq mutant G84A, D144G, K314R, E520G, F598L, A608V, E742G; SEQ ID NO: 1 (protein)
chain: MRGMLPLFEPKGRVLLVDGHHLAYRTFHALKGLTTSRGEPVQAVYGFAKSLLKALKEDGDAVIVVFDAKAPSFRHEAYGGYKAARAPTPEDFPRQLALIKELVDLLGLARLEVPGYEADDVLASLAKKAEKEGYEVRILTADKGLYQLLSDRIHVLHPEGYLITPAWLWEKYGLRPDQWADYRALTGDESDNLPGVKGIGEKTARKLLEEWGSLEALLKNLDRLKPAIREKILAHMDDLKLSWDLAKVRTDLPLEVDFAKRREPDRERLRAFLERLEFGSLLHEFGLLESPKALEEAPWPPPEGAFVGFVLSRREPMWADLLALAAAAGGRVHRAPEPYKALRDLKEARGLLAKDLSVLALREGLGLPPGDDPMLLAYLLDPSNTTPEGVARRYGGEWTEEAGERAALSERLFANLWGRLEGEERLLWLYREVERPLSAVLAHMEATGVRLDVAYLRALSLEVAEEIARLEAEVFRLAGHPFNLNSRDQLERVLFDELGLPAIGKTEKTGKRSTSAAVLGALREAHPIVEKILQYRELTKLKSTYIDPLPDLIHPRTGRLHTRFNQTATATGRLSSSDPNLQNIPVRTPLGQRIRRAFIAEEGWLLVVLDYSQIELRVLAHLSGDENLIRVFQEGRDIHTETASWMFGVPREAVDPLMRRAAKTINFGVLYGMSAHRLSQELAIPYEEAQAFIERYFQSFPKVRAWIEKTLEEGRRRGYVETLFGRRRYVPDLEARVKSVRGAAERMAFNMPVQGTAADLMKLAMVKLFPRLEEMGARMLLQVHDELVLEAPKERAEAVARLAKEVMEGVYPLAVPLEVEVGIGEDWLSAKE
modifications: Mutant Thermus aquaticus DNA polymerase

System: HIV pol (38% GC), Taq (68% GC) PCR targets
Assay: Mutation spectrum in PCR by sequencing of cloned products
Assay type: biochemical
Settings: for total substitutions observed in PCR fragments: PCR fragments amplified with the polymerase, FIG. 22B; for Mutation spectrum in PCR: Transitions AT->GC (number of mutations) / Mutation spectrum in PCR: Transitions GC->AT (number of mutations) / Mutation spectrum in PCR: Transversions AT->CG (number of mutations) / Mutation spectrum in PCR: Transversions AT->TA (number of mutations) / Mutation spectrum in PCR: Transversions GC->CG (number of mutations) / Mutation spectrum in PCR: Transversions GC->TA (number of mutations) / Mutation spectrum in PCR: Deletions (number): sequencing of 40 clones (800 bp) each; for Mutation spectrum in PCR: Deletions (number): −1 deletions

| Molecule | total substitutions observed in PCR fragments | Mutation spectrum in PCR: Transitions AT->GC (number of mutations) | Mutation spectrum in PCR: Transitions GC->AT (number of mutations) | Mutation spectrum in PCR: Transversions AT->CG (number of mutations) | Mutation spectrum in PCR: Transversions AT->TA (number of mutations) | Mutation spectrum in PCR: Transversions GC->CG (number of mutations) | Mutation spectrum in PCR: Transversions GC->TA (number of mutations) | Mutation spectrum in PCR: Deletions (number) |
| --- | --- | --- | --- | --- | --- | --- | --- | --- |
| wtTaq: Thermus aquaticus (Taq) wild type DNA polymerase [reference compound] | 48 | 25 | 9 | 2 | 8 | 1 | 3 | 3 |
| B1 | 74 | 25 | 16 | 4 | 15 | 10 | 5 | 1 |

Source: US9096835B2, “DNA polymerase” (Medical Research Council, priority 2003, dated 2015)
